A mixed list of measured activities; the numbers were collected in NIAID ChemDB.

Common to all: growth or infection tests; species: HIV-1; cell line: MT-4; measure: EC50

ECn is the concentration giving n% inhibition of infection, replication or growth. An empty or dashed field is not shown. Rows are shuffled and stem from different studies.

SMILES	strain or isolate	mutations	read by	result
CC(c1nnc(SCc2ccc(Br)cc2)o1)N(Cc1ccc(Br)cc1)S(=O)(=O)c1ccc(Cl)cc1	IIIB	-	-	>125 µg/mL
CCCc1c(OC2CCCC2)c2cc(OC)ccc2[nH]c1=O	Nevirapine-resistant (RT Y181C)	RT-Y181C	-	>5 µM
CC(=O)Nc1ccc(S(=O)(=O)Nc2ccc(Nc3nc(Oc4c(C)cc(C#N)cc4C)c4sccc4n3)cc2)cc1	IIIB	-	MTT	0.28 µM
CSCCC(c1nnc(SCc2ccc(Br)cc2)o1)N(Cc1ccc(Br)cc1)S(=O)(=O)c1ccc(C)cc1	IIIB	-	-	>125 µg/mL
CC(C)c1c(OCC2CCC2)c2cnccc2[nH]c1=O	-	-	-	0.02 µM
O=c1[nH]c(=O)n([C@H]2C=C[C@@H](CO)O2)cc1CO	IIIB	-	RT activity	0.22 µM
CCOP(=O)(N[C@@H](Cc1ccccc1)[C@H](O)CN(CC(C)C)S(=O)(=O)c1ccc(OC)cc1)OCC	RES056	-	MTT	7.4 µg/mL
CCCc1c(OC2CCCC2)c2cc(OC(F)(F)F)ccc2[nH]c1=O	-	-	-	0.122 µM
CC(C)CN(C[C@@H](O)[C@H](Cc1cc(F)cc(F)c1)NC(=O)OC1C[C@@H]2COC3OC1C[C@@H]32)S(=O)(=O)c1ccc2nc(NC3CC3)sc2c1	NL4-3	-	ELISA	0.000034 µM
Cc1nc(CCCCCCC(=O)c2ccccc2)n2nc(Cl)ccc12	IIIB	-	RT activity	1.4 µM
COc1ccc(Nc2nc3cc(C(F)(F)F)ccc3n3cccc23)cc1	-	-	cytopathic effect / MTT	>100 µM
CCc1c(Sc2ccccc2)n(COCc2ccccc2)c(=O)[nH]c1=O	A018C	-	p24	0.01 µM
O=C(O)CCC(NC(=O)c1ccc(OCc2nc3cc(C(F)(F)F)ccc3n3cccc23)cc1)C(=O)O	-	-	cytopathic effect / MTT	>100 µM
CCOP(=O)(OCC)C(N[C@@H](Cc1ccccc1)[C@H](O)CN(CC(C)C)S(=O)(=O)c1ccc(OC)cc1)c1ccc2c(c1)OCO2	ROD	-	MTT	>13.2 µg/mL
Cc1ccc(S(=O)(=O)NC(C)c2nnc(SCc3ccccc3)o2)cc1	IIIB	-	-	>59.58 µg/mL
CCCOCn1c(Sc2ccccc2)c(C)c(=O)[nH]c1=O	IIIB	-	cytopathic effect / MTT	3 µM
Cc1cn([C@H]2C[C@H](N=[N+]=[N-])[C@@H](CCO)O2)c(=O)[nH]c1=O	IIIB	-	cytopathic effect / trypan blue	>200 µg/mL
CCCCOP(=O)(N[C@@H](Cc1ccccc1)[C@H](O)CN(CC(C)C)S(=O)(=O)c1ccc(OC)cc1)OCCCC	IIIB	-	MTT	>13.08 µg/mL
COc1cc(OC)cc(OCc2nc3cc(C(F)(F)F)ccc3n3cccc23)c1	-	-	cytopathic effect / MTT	>100 µM
Cc1cc(C#N)cc(C)c1Oc1nc(NC2CCN(S(C)(=O)=O)CC2)nc2ccsc12	IIIB	-	MTT	0.58 µM
CCC(C)c1c(OC2CCCC2)c2cc(Cl)ccc2[nH]c1=O	Nevirapine-resistant (RT Y181C)	RT-Y181C	-	0.353 µM
CC(C)CN(C[C@@H](O)[C@H](Cc1ccccc1)NC(=O)O[C@H]1CO[C@H]2OCC[C@H]21)S(=O)(=O)c1ccc2nc(NC3CCN(C4CCCC4)CC3)sc2c1	T21055	L10F I47V	reporter gene	308 nM
CCCc1c(OC2CCCC2)c2cc(Cl)ccc2[nH]c1=O	Nevirapine-resistant (RT Y181C)	RT-Y181C	-	1.63 µM
CCOP(=O)(OCC)C(N[C@@H](Cc1ccccc1)[C@@H](O)CN(CC(C)C)S(=O)(=O)c1ccc(OC)cc1)c1ccc2c(c1)OCO2	ROD	-	MTT	>13.73 µg/mL
CC(NS(=O)(=O)c1ccc(Cl)cc1)c1nnc(SCc2ccc(Cl)cc2)o1	IIIB	-	-	>14.08 µg/mL
Cc1cn([C@H]2C[C@H](N=[N+]=[N-])[C@@H]([C@@H](C)O)O2)c(=O)[nH]c1=O	IIIB	-	cytopathic effect / trypan blue	>200 µg/mL
Cc1cc(C#N)cc(C)c1Oc1nc(NC2CCN(S(=O)(=O)c3ccccc3)CC2)nc2ccsc12	IIIB	-	MTT	0.35 µM
CCOP(=O)(OCC)C(N[C@@H](Cc1ccccc1)[C@@H](O)CN(CC(C)C)S(=O)(=O)c1ccc(OC)cc1)C(C)C	ROD	-	MTT	>13.68 µg/mL
Cc1nc(CCCCCCC(=O)c2ccccc2)n2nc(NCCCCCCCCNCc3cn([C@H]4C=C[C@@H](CO)O4)c(=O)[nH]c3=O)ccc12	IIIB	-	RT activity	0.36 µM
CCOC(=O)CCC(NC(=O)c1ccc(Nc2nc3ccccc3n3cccc23)cc1)C(=O)OCC	-	-	cytopathic effect / MTT	>48 µM
CSCCC(NS(=O)(=O)c1ccc(C)cc1)c1nnc(SCc2ccc(F)cc2)o1	IIIB	-	-	>11.5 µg/mL
CCCc1c(OC2CCCC2)c2ccccc2[nH]c1=O	Nevirapine-resistant (RT Y181C)	RT-Y181C	-	1.85 µM
Cc1ccc(S(=O)(=O)NC(C)c2nnc(SCc3ccc(Br)cc3)o2)cc1	IIIB	-	-	>75.33 µg/mL
CCOC(=O)CCC(NC(=O)c1ccc(OCc2nc3ccccc3n3cccc23)cc1)C(=O)OCC	-	-	cytopathic effect / MTT	>100 µM
CCCc1c(SCC2CCC2)c2cc(Cl)ccc2[nH]c1=O	Nevirapine-resistant (RT Y181C)	RT-Y181C	-	0.107 µM
O=C(O)c1ccc(OCc2nc3cc(C(F)(F)F)ccc3n3cccc23)cc1	-	-	cytopathic effect / MTT	>100 µM
CCCc1c(OC2CCCC2)c2cc(F)ccc2[nH]c1=O	Nevirapine-resistant (RT Y181C)	RT-Y181C	-	0.72 µM
O=C(O)c1ccc(Nc2nc3cc(C(F)(F)F)ccc3n3cccc23)cc1	-	-	cytopathic effect / MTT	>15 µM
CSCCC(NS(=O)(=O)c1ccc(C)cc1)c1nnc(SCc2ccc(Br)cc2)o1	IIIB	-	-	>11.75 µg/mL
O=C(O)c1ccc(Nc2nc3ccccc3n3cccc23)cc1	-	-	cytopathic effect / MTT	>100 µM
Cc1cc(C#N)cc(C)c1Oc1nc(NC2CCN(S(=O)(=O)c3ccc4ccccc4c3)CC2)nc2ccsc12	IIIB	-	MTT	0.74 µM
Cc1cn([C@H]2C=C[C@@H](CO)O2)c(=O)[nH]c1=O	IIIB	-	RT activity	0.28 µM
CSCCC(NS(=O)(=O)c1ccc(C)cc1)c1nnc(SCc2ccccc2)o1	IIIB	-	-	>30.48 µg/mL

A second listing of 4 rows from above:

SMILES | strain or isolate | mutations | read by | result
Cc1cc(C#N)cc(C)c1Oc1nc(NC2CCN(S(C)(=O)=O)CC2)nc2ccsc12 | IIIB | - | MTT | 0.58 µM
Cc1cn([C@H]2C=C[C@@H](CO)O2)c(=O)[nH]c1=O | IIIB | - | RT activity | 0.28 µM
CCCc1c(OC2CCCC2)c2cc(OC(F)(F)F)ccc2[nH]c1=O | - | - | - | 0.122 µM
O=C(O)c1ccc(Nc2nc3cc(C(F)(F)F)ccc3n3cccc23)cc1 | - | - | cytopathic effect / MTT | >15 µM